Measured values from several laboratories, pooled; numbers as filed in NIAID ChemDB.

Shared fields: tests in culture

An empty or dashed field is not shown.

smiles	read by	organism	measure	strain or isolate	dose	cell line	result
c1ccc(N=Nc2ccccc2)cc1	cytopathic effect	Tacaribe virus	EC50	-	-	VERO	35.2 µM
COC(=O)[C@H](C)NP(=O)(OC[C@H]1C/C1=C/n1cnc2c(N)nc(N)nc21)Oc1ccccc1	plaque count	Mouse cytomegalovirus	EC50	-	-	MEF	3.2 µM
Nc1nc(=O)n([C@@H]2CS[C@H](CO)O2)cc1F	-	Duck hepatitis B virus	EC50	WILD TYPE	-	LMH	10.5 µM
CCc1c2c(nc3ccc(O)cc13)-c1cc3c(c(=O)n1C2)COC(=O)[C@]3(O)CC	-	Saccharomyces cerevisiae	MIC	Mutant ΔERG6	-	-	>100 µg/mL
C=C(C)CN(CC)c1c([N+](=O)[O-])cc(C(F)(F)F)cc1[N+](=O)[O-]	-	Toxoplasma gondii	EC50	Trifluralin-resistant	-	-	0.7 µM
Nc1ncnc2c1ncn2CCOCP(=O)(O)O	cytopathic effect	Varicella zoster virus	EC50	OKA (WILD TYPE)	-	HEL	17.8 µM
Nc1ccn([C@@H]2C[C@H](CO)[C@@H](O)[C@H]2O)c(=O)n1	cytopathic effect	Respiratory syncytial virus	EC50	S-8	-	HeLa	>100 µg/mL
CN1CCC2(CC3CCC2(C)C3(C)C)C1	-	Coxsackie virus	inhibition	TYPE A21	100 µM	HeLa	20–40%
Nc1nccc2c1ncn2[C@@H]1C=C(CO)[C@@H](O)[C@H]1O	cytopathic effect	Sindbis virus	EC50	-	-	VERO	>400 µg/mL
CC[C@@]1(O)C(=O)OCc2c1cc1n(c2=O)Cc2c-1nc1cc3c(cc1c2CCl)OCO3	-	Saccharomyces cerevisiae	MIC	Mutant ΔERG6 ΔTOP1	-	-	>100 µg/mL
CO[C@@H]1[C@H](O)[C@@H](COP(=O)(O)OP(=O)(O)OP(=O)(O)O)O[C@H]1n1ccc(N)nc1=O	MTT	Hepatitis C virus	inhibition	-	30 µg/mL	HepG2-5B	52.03%
N=C(N)c1ccc2[nH]c(C(=N)N)cc2c1	cytopathic effect	Respiratory syncytial virus	EC50	58-8	-	HeLa	>25 µg/mL
O=c1c(O)c(-c2ccc(O)cc2)oc2cc(O)cc(O)c12	-	Rotavirus A	inhibition	SA-11	10 µg/mL	VERO	35%
COc1cc2c(cc1OC)C1OCCCN1c1c-2ccc2cc3c(cc12)OCO3	-	Saccharomyces cerevisiae	MIC	Mutant ΔERG6 ΔTOP1	-	-	50 µg/mL
CC1(C)[C@@H](O[C@H]2O[C@H](C(=O)O)[C@@H](O)[C@H](O)[C@H]2O[C@@H]2O[C@H](C(=O)O)[C@@H](O)[C@H](O)[C@H]2O)CC[C@]2(C)[C@H]3C(=O)C=C4[C@@H]5C[C@@](C)(C(=O)O)CC[C@]5(C)CC[C@@]4(C)[C@]3(C)CC[C@@H]12	plaque count	Measles virus	EC50	Kitaken-1	-	VERO	680 µg/mL
C[C@@]1(O)[C@H](O)[C@@H](CO)O[C@H]1c1c[nH]c2c(N)ncnc12	MTT	Hepatitis C virus	inhibition	-	2 µg/mL	HepG2-T5B	6.15%
CCN1CCC2(C1)C1CC3CC(C1)CC2C3	-	Coxsackie virus	inhibition	TYPE A21	100 µM	HeLa	20–40%
NC(=O)c1ncn([C@@H]2O[C@H](CO)[C@@H](O)[C@H]2O)n1	neutral red	Measles virus	EC50	X-1108	-	CV-1	20 µg/mL
Cc1cn([C@H]2C[C@H](F)[C@@H](CO)O2)c(=O)[nH]c1=O	cytopathic effect	Adenovirus	EC50	TYPE 2	-	HEL	0.8 µM
CC(C)[C@H](NC(=O)[C@H](CCCN=C(N)N)NC(=O)N[C@@H](Cc1ccccc1)C(=O)O)C(=O)N[C@H](C=O)CCCN=C(N)N	-	Cryptosporidium parvum	inhibition	-	10 µg/mL	-	46.89%
NC(=O)c1[nH]nc([C@@H]2O[C@H](CO)[C@@H](O)[C@H]2O)c1O	plaque count	Measles virus	EC50	Yamagata-1	-	VERO	0.12 µg/mL
C1CCC2(CC1)CCNC2	-	Rhinovirus	inhibition	-	100 µM	HeLa	20–40%
C[C@@H](O)C1=C[C@@H](n2cnc3c(N)ncnc32)[C@H](O)[C@@H]1O	plaque count	Parainfluenza virus	EC50	TYPE 3/HA-1 C243	-	VERO	0.16 µg/mL
NC12CC3CC(CC(C3)C1)C2	-	Cryptosporidium parvum	inhibition	-	25 µg/mL	-	7%
c1cc(CN2CCCNCCNCCCNCC2)ccc1CN1CCCNCCNCCCNCC1	p24	HIV-1	inhibition	SW23 CLADE C R5	0.1 µM	PBMC	0%
NC(=O)c1ncn([C@@H]2O[C@H](CO)[C@@H](O)[C@H]2O)n1	-	Adenovirus	EC50	TYPE 2	-	HEL	>250 µM
Nc1nc2c(ncn2COC(CO)CO)c(=O)[nH]1	plaque count	Varicella zoster virus	EC50	PCV-resistant/B	-	HEL	0.16 µg/mL
Nc1nc2c(ncn2C[C@]2(CO)C[C@H]2CO)c(=O)[nH]1	-	Adenovirus	EC50	TYPE 2	-	HEL	267 µM
CC1(C)[C@@H](O[C@H]2O[C@H](C(=O)O)[C@@H](O)[C@H](O)[C@H]2O[C@@H]2O[C@H](C(=O)O)[C@@H](O)[C@H](O)[C@H]2O)CC[C@]2(C)[C@H]3C(=O)C=C4[C@@H]5C[C@@](C)(C(=O)O)CC[C@]5(C)CC[C@@]4(C)[C@]3(C)CC[C@@H]12	virus yield	Dengue virus	EC90	TYPE 4 (YUNH)	-	VERO	416 µg/mL
CC[C@@H](C(C)C)[C@@H](O)[C@H](O)[C@@H](C)[C@H]1CC[C@H]2[C@@H]3CC(=O)[C@@]4(O)C[C@@H](OC(C)=O)CC[C@]4(C)[C@H]3CC[C@]12C	plaque count	Measles virus	EC50	MV/Brazil/001/91	-	VERO	21 µM
Nc1ncnc2c1ncn2[C@@H]1C=C(CO)[C@@H](O)[C@H]1O	plaque count	Measles virus	EC50	Niigata-1	-	VERO	6.5 µg/mL
COC(=O)[C@H](C)NP(=O)(OC[C@H]1C/C1=C/n1cnc2c(OC)nc(N)nc21)Oc1ccccc1	plaque count	Mouse cytomegalovirus	EC50	-	-	MEF	0.24 µM
COc1ccc(-c2cc(=O)c3c(O)cc(O)cc3o2)cc1	-	Rotavirus A	EC50	SA-11	-	VERO	>20 µg/mL
C#CC[C@@H](C(=O)N[C@H](/C=C/C(=O)OCC)C[C@@H]1CCNC1=O)n1cccc(NC(=O)c2cc(C)on2)c1=O	cytopathic effect / XTT	Rhinovirus	inhibition	Serotype 38	0.132 µM	H1-HELA	90%
O=Nc1ccc2ccccc2c1N=Nc1ccccc1C(=O)O	cytopathic effect	Tacaribe virus	EC50	-	-	VERO	26.2 µM
O=c1cnn([C@@H]2O[C@H](CO)[C@@H](O)[C@H]2O)c(=O)[nH]1	cytopathic effect	West Nile virus	EC50	New York isolates	-	VERO	1.6 µg/mL
Nc1nc(=O)n([C@H]2C[C@H](O)[C@@H](CO)O2)cc1I	-	Cryptosporidium parvum	inhibition	-	10 µg/mL	-	92%
Nc1ncnc2c1ncn2[C@@H]1C=C[C@@H](O)[C@H]1O	virus yield	Rotavirus A	EC90	-	-	MA-104	0.5 µg/mL
C[C@H]1NCc2cc(-c3ccc4c(=O)c(C(=O)O)cn(C5CC5)c4c3OC(F)F)ccc21	-	Haemophilus influenzae	MIC90	17 strains (beta-lactamase-producing)	-	-	0.03 µg/mL
O=C(O)P(=O)(O)O	cytopathic effect	Adenovirus	EC50	TYPE 2	-	HEL	>1000 µM
NC12CC3CC(CC(C3)C1)C2	-	Rhinovirus	inhibition	-	100 µM	HeLa	<20%
O=c1[nH]c(=O)n([C@@H]2O[C@H](CO)[C@@H](O)[C@@H]2O)cc1/C=C/Br	plaque count	Varicella zoster virus	EC50	BVaraU-resistant	-	HEL	>20 µg/mL
CO/N=C1\CN(c2nc3c(cc2F)c(=O)c(C(=O)O)cn3C2CC2)CC1CN	-	Streptococcus pneumoniae	MIC	622286	-	-	0.125 µg/mL
COc1cc2c[n+](C)c3c4cc5c(cc4ccc3c2cc1OC)OCO5	-	Saccharomyces cerevisiae	MIC	Mutant ΔERG6	-	-	1.56 µg/mL
Nc1nc2c(ncn2CCC(CO)CO)c(=O)[nH]1	plaque count	Varicella zoster virus	EC50	PCV-resistant/B	-	HEL	2 µg/mL
Nc1nc2c(ncn2[C@H]2CO[C@@H](CO)O2)c(=O)[nH]1	-	Duck hepatitis B virus	EC50	WILD TYPE	-	HepG2	22.3 µM
O=C(O)CP(=O)(O)O	plaque count	Varicella zoster virus	EC50	PMEA-resistant	-	HEL	21.5 µg/mL
CC(C)S(=O)(=O)n1c(N)nc2ccc(/C(=N/O)c3ccccc3)cc21	plaque count	Rhinovirus	EC50	Serotype 48	-	HeLa	0.03 µg/mL
Nc1nccc2c1ncn2[C@@H]1C[C@H](CO)[C@@H](O)[C@H]1O	cytopathic effect	Influenza C virus	EC50	-	-	MDCK	>16 µg/mL
CC[C@@]1(O)C(=O)OCc2c1cc1n(c2=O)Cc2cc3c(N)cccc3nc2-1	-	Saccharomyces cerevisiae	MIC	Mutant ΔERG6 ΔTOP1	-	-	>100 µg/mL
OC(Cn1cncn1)(Cn1cncn1)c1ccc(F)cc1F	broth dilution	Candida albicans	MIC	YL 371	-	-	>512 µg/mL
Oc1cc(O)c2c(c1)OC(c1ccc(O)c(O)c1)[C@@H](O)C2	broth dilution	Candida tropicalis	MIC50	Clinical isolate 1	-	-	>128 µg/mL
Nc1cc2[nH]cnc2c(=O)[nH]1	cytopathic effect	Respiratory syncytial virus	EC50	58-14	-	HeLa	1.7 µg/mL
N=C(N)c1ncn([C@@H]2O[C@H](CO)[C@@H](O)[C@H]2O)n1	neutral red	Influenza A virus (H1N1)	EC50	A/NWS/33	-	MDCK	18 µg/mL
Nc1nc2c(ncn2COCCO)c(=O)[nH]1	-	Cryptosporidium parvum	inhibition	-	50 µg/mL	-	0%
O=C1N(Cc2ccc(CO)cc2)[C@H](Cc2ccccc2)[C@H](O)[C@@H](O)[C@@H](Cc2ccccc2)N1Cc1ccc(CO)cc1	virus yield	HIV-1	inhibition	RF	0.04 µM	H9	90%
Cc1cn([C@H]2O[C@@H](CO)[C@H](O)[C@H]2F)c(=O)[nH]c1=O	-	Duck hepatitis B virus	EC50	WILD TYPE	-	LMH	>100 µM
COc1cc(-c2oc3cc(O)cc(O)c3c(=O)c2O)ccc1O	cytopathic effect	Respiratory syncytial virus	EC50	LONG	-	HeLa	>4 µg/mL
Nc1ncnc2c1ncn2C[C@@H](CO)OCP(=O)(O)O	plaque count	Measles virus	EC50	Niigata-1	-	VERO	>200 µg/mL
NC1CCCCCCC1	-	Influenza A virus	MIC	A/England/42/74	-	-	0.05 µg/mL

A second listing of 4 rows from above:

CC[C@@]1(O)C(=O)OCc2c1cc1n(c2=O)Cc2c-1nc1cc3c(cc1c2CCl)OCO3 ; organism: Saccharomyces cerevisiae ; measure: MIC ; strain or isolate: Mutant ΔERG6 ΔTOP1 ; result: >100 µg/mL
c1ccc(N=Nc2ccccc2)cc1 ; read by: cytopathic effect ; organism: Tacaribe virus ; measure: EC50 ; cell line: VERO ; result: 35.2 µM
COc1ccc(-c2cc(=O)c3c(O)cc(O)cc3o2)cc1 ; organism: Rotavirus A ; measure: EC50 ; strain or isolate: SA-11 ; cell line: VERO ; result: >20 µg/mL
C[C@@H](O)C1=C[C@@H](n2cnc3c(N)ncnc32)[C@H](O)[C@@H]1O ; read by: plaque count ; organism: Parainfluenza virus ; measure: EC50 ; strain or isolate: TYPE 3/HA-1 C243 ; cell line: VERO ; result: 0.16 µg/mL

a–b is a range or a potency band. MIC50, MIC90 and the like: level of inhibition, or share of isolates inhibited. Lines come from different laboratories, so protocols vary. ECn is the concentration giving n% inhibition of infection, replication or growth. Percent inhibition refers to the dose given; in toxicity tests it is the harm to the cells.